{"sequences": {"note": "Sequences of proteins named here, by UniProt entry; tags and fusion partners are left off. A change or cut given only in a name is not applied to a line headed by its entry.", "UniProt P9WK35": "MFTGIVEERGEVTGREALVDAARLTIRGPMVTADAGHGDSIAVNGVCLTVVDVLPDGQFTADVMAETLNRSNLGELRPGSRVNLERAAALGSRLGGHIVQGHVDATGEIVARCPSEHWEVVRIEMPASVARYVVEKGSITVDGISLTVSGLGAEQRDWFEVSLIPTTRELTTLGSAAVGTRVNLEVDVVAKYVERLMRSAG"}, "source": "paper PMC2868945", "about": "(Bioorganic & medicinal chemistry, 2010)", "molecular_target": "recombinant riboflavin synthase of M. tuberculosis (Mycobacterium tuberculosis, UniProt P9WK35)", "experiment": "Kinetic assay of riboflavin synthase inhibitors", "format": "biochemical", "details": "RS; fit parameter of the inhibitor's data set", "data": [{"substance": "1,1-Difluoro-4-(2-oxo-1,2-dihydrobenzo[cd]indole-6-sulfonamido)pentylphosphonic Acid [Compound 72]", "values": [{"measurement": "Kcat (rate constant for ES ⇌ E + P)", "value": "0.15 ± 0.01", "unit": "m^−1"}]}]}
